A mixed list of measured activities; the numbers were collected in NIAID ChemDB.

All rows: tests in culture; agent: HIV-1; cells: CEM; read-out: EC50

Two numbers with a dash give a range or band. ECn: concentration that inhibits the pathogen or its effect by n%. An empty or dashed field is not shown. Lines come from different laboratories, so protocols vary.

structure	strain	mutations	method	result
CC1(C)[C@@H](CCO)C[C@H]1n1cnc2c(N)ncnc21			cytopathic effect	>20 µg/mL
CC(C)CN(C[C@@H](O)[C@H](Cc1ccccc1)NC(=O)OCc1ccccc1)S(=O)(=O)c1ccc2nonc2c1	IIIB		p24	<1.001 µM
Cc1cc(S(=O)(=O)Nc2nnc3ccccn23)c(S)cc1Cl	RF		cytopathic effect / XTT	133 µM
CO[C@@H]1C[C@H](n2ccc3c(N)ncnc32)[C@@H](O)[C@H]1O	IIIB			>250 µg/mL
S=c1[nH]c(=S)c2c3c(sc2[nH]1)CCCCC3			absorbance	>5.25 µM
CCCCCCCC/C=C\CCCCCCCC(=O)Oc1ccc(COP(=O)(OCc2ccc(OC(=O)CCCCCCC/C=C\CCCCCCCC)cc2)OP(=O)(O)OC[C@@H]2C=C[C@H](n3cc(C)c(=O)[nH]c3=O)O2)cc1	IIIB		syncytia / microscopy	1.1 µM
Cc1cc2c(cc1Cl)Sc1nccn1S2(=O)=O			cytopathic effect / XTT	44 µM
C[C@H](Cn1cnc2c(N(C)C)ncnc21)OCP(=O)(O)O	IIIB		cytopathic effect / MTT	0.7 ± 0.1 µg/mL
CC(C)CN(C[C@@H](O)[C@H](Cc1ccccc1)NC(=O)[C@@H](NC(=O)OCc1ccccn1)C(C)C)S(=O)(=O)c1ccc(F)cc1	IIIB		p24	<0.101 µM
CCC1=C(C(=O)CC2CCCC2)[C@H](c2ccc(O)c(Cl)c2)NC(=O)N1			p24 / ELISA	>5 µM
O=C(O)c1cc(Cc2ccc(O)c(C(=O)O)c2)ccc1O	IIIB		cytopathic effect / XTT	>350 µM
Nc1cc(OC[C@@H]2O[C@H](CO)[C@@H](O)[C@H]2O)nc(N)n1	IIIB		syncytia	>100 µM
Cc1cn([C@@H]2O[C@H](CO[Si](C)(C)C(C)(C)C)[C@@]3(OS(=O)(=O)C([N+](=O)[O-])=C3N)[C@H]2O[Si](C)(C)C(C)(C)C)c(=O)n(C)c1=O				7 µM
CCCC[C@H](NP(=O)(OC[C@@H]1C=C[C@H](n2cc(C)c(=O)[nH]c2=O)O1)Oc1ccccc1)C(=O)OC				0.5 µM
CC1(C)[C@@H](CCO)C[C@H]1n1cnc2c(=O)[nH]cnc21			cytopathic effect	>100 µg/mL
c1ccc(C2=NOC(c3ccccc3)N2C23CC4CC(CC(C4)C2)C3)cc1			cytopathic effect / XTT	<63 µM
CCCCCCCCCC(=O)Oc1ccc(COP(=O)(OCCC#N)OP(=O)(O)OC[C@@H]2C=C[C@H](n3cc(C)c(=O)[nH]c3=O)O2)cc1	IIIB		syncytia / microscopy	0.99 µM
Cc1cc(S(=O)(=O)Nc2nnc3c(C(F)(F)F)cc(Cl)cn23)c(S)cc1Cl	RF		cytopathic effect / XTT	25.4 µM
CCC(CC)(NP(=O)(OC[C@@H]1C=C[C@H](n2cc(C)c(=O)[nH]c2=O)O1)Oc1ccccc1)C(=O)OC				30 µM
Nc1nccc(OC[C@H]2CC[C@@H](CO)O2)n1	IIIB		syncytia	>250 µM
S=C(CCCc1ccccc1)Nc1ccc(Cl)cn1	WILD TYPE		XTT	>200 µM
Cc1cn([C@H]2C=C[C@@H](CO)O2)c(=O)[nH]c1=O				0.65 µM
COc1ccc(S(=O)(=O)N(CC(C)C)C[C@@H](O)CCN(CC2CCCC2)S(=O)(=O)C2CCCS(=O)(=O)C2)cc1	IIIB		p24	<1 µM
CN(C)c1ccc(C2ON=C(c3ccccc3)N2C23CC4CC(CC(C4)C2)C3)cc1			cytopathic effect / XTT	>0.63 µM
CCCCCCCCC(=O)CCCCC(=O)O			cytopathic effect	>10 µg/mL
CCC1=C(C(=O)OCC2CCCCC2)C(c2ccccc2Cl)NC(=O)N1			p24 / ELISA	>5 µM
C=C(COC)COC(=O)N[C@@H](Cc1ccccc1)[C@H](O)CN(CC(C)C)S(=O)(=O)c1ccc(NC(C)=O)cc1	IIIB		p24	<0.101 µM
CCC1=C(C(=O)OCC2CCCCC2)[C@H](c2cccc(OC(=O)OC(C)(C)C)c2)NC(=O)N1			p24 / ELISA	≤1 µM
Nc1nc(Cl)c2ncn([C@@H]3O[C@H](CO)C[C@@H]3F)c2n1	LAI		XTT	>50 µM
Nc1nc(NC2CCCCC2)c2ncn(CCOCP(=O)(O)O)c2n1	IIIB		cytopathic effect / MTT	20 µg/mL
Cc1occc1C(=O)Nc1ccc(Cl)c(/C=N/N2CCCC2)c1	R82913-resistant (RT K103N)	RT-K103N	syncytia	<2 µg/mL
CCC1=C(C(=O)OCC2CCCCC2)C(c2ccc(F)c([N+](=O)[O-])c2)NC(=O)N1			p24 / ELISA	≤1 µM
COC1=C(C2=C(C3=C(O)C(=O)c4ccccc4C3=O)C(=O)c3ccccc3C2=O)C(=O)c2ccc3c(c2C1=O)C=CC(C)(C)O3	IIIB		cytopathic effect / MTT	8.8 µM
CN(C)c1nc(N)nc2c1ncn2CCOCP(=O)(O)O	IIIB		cytopathic effect / MTT	0.7 µg/mL
CC(=O)Nc1ccc(S(=O)(=O)N(CC(C)C)C[C@@H](O)[C@H](Cc2ccccc2)NC(=O)[C@@H](NC(=O)OCc2ccccn2)C(C)C)cc1	IIIB		p24	<0.101 µM
O=C(NCCc1ccc(O)c(O)c1)c1cc2cc(O)c(O)cc2[nH]1			cytopathic effect / MTT	>10 µM
CCCCCCCCCCCCCCCC(=O)Oc1ccc(COP(=O)(OCc2ccc(OC(=O)CCCCCCCCCCCCCCC)cc2)OP(=O)(O)OC[C@@H]2C=C[C@H](n3cc(C)c(=O)[nH]c3=O)O2)cc1	IIIB		syncytia / microscopy	2 µM
CC(C)CN(CC(O)CC(=O)N1CSC[C@@H]1C(=O)NC(C)(C)C)S(=O)(=O)c1ccccc1	IIIB		p24	<1 µM
NC(=O)CCNC(=O)c1ccccc1SC(=O)c1cccnc1	RF		XTT	2.9 µM
O=S(=O)(O)c1cc(Cl)cc(Cc2cc(Cl)cc(S(=O)(=O)O)c2O)c1O	IIIB		syncytia	122.7 µg/mL
CCC1=C(C(=O)OCC2CCCCC2)C(c2ccc(NC(C)=O)cc2)NC(=O)N1			p24 / ELISA	≤1 µM
CC(C)(C)NC(=O)c1ccc2ccccc2c1OC[C@@H](O)[C@H](Cc1ccccc1)NC(=O)[C@H](CC(N)=O)NC(=O)c1ccc2ccccc2n1	IIIB		cytopathic effect / MTT	0.67 µM
O=C(O)CCCCCCCCCCCn1cnnn1	RF		cytopathic effect	<10 µg/mL
COc1ccc(S(=O)(=O)N(CC(C)C)C[C@@H](O)CCN(CC2CCCC2)S(=O)(=O)Cc2cc(C(C)(C)C)on2)cc1	IIIB		p24	<1 µM
CC(C)(C)NC(=O)c1c(OC[C@@H](O)[C@H](Cc2ccccc2)NC(=O)[C@H](CC(N)=O)NC(=O)c2ccc3ccccc3n2)ccc2ccccc12	IIIB		cytopathic effect / MTT	0.24 µM
O=C(O)c1cc(C(=C(c2cc(Cl)c(O)c(C(=O)O)c2)c2cc(Cl)c(O)c(C(=O)O)c2)c2cc(Cl)c(O)c(C(=O)O)c2)cc(Cl)c1O	IIIB		cytopathic effect / XTT	68 µM
COc1ccc(S(=O)(=O)N(CC(C)C)C[C@@H](O)CCN(CC2CCCC2)S(=O)(=O)CC2NC(=O)NC2=O)cc1	IIIB		p24	<1 µM
Nc1cc(OC[C@H]2CC[C@@H](COCc3ccccc3)O2)nc(N)n1	IIIB		syncytia	>250 µM
CCC1=C(C(=O)OCC2CCCCC2)[C@H](c2ccc(OC(=O)OC(C)(C)C)cc2)NC(=O)N1			p24 / ELISA	≤1 µM
Cc1cnc2n1S(=O)(=O)c1cc(C(=O)NCC(C)C)c(Cl)cc1S2			cytopathic effect / XTT	>200 µM
Cc1cccc(C2ON=C(c3ccccc3)N2C23CC4CC(CC(C4)C2)C3)c1			cytopathic effect / XTT	>2 µM
Nc1nc(N)c2ncn([C@@H]3O[C@H](CO)C[C@@H]3F)c2n1	LAI		XTT	37 µM
[N-]=[N+]=NCCCCCCCCCCCC(=O)O			cytopathic effect	<1 µg/mL
CCC1=C(C(=O)OCC2CCCCC2)C(c2cc(O)c(O)c(Br)c2Br)NC(=O)N1			p24 / ELISA	1–5 µM
COc1cccc(C2ON=C(c3ccccc3)N2C23CC4CC(CC(C4)C2)C3)c1			cytopathic effect / XTT	>2 µM
c1ccc(COC[C@H]2CC[C@@H](COc3cc(OC[C@H]4CC[C@@H](COCc5ccccc5)O4)ncn3)O2)cc1	IIIB		syncytia	>10 µM
O=P(O)(O)OP(=O)(O)OP(=O)(O)OP(=O)(O)OP(=O)(O)OP(=O)(O)OP(=O)(O)OP(=O)(O)OP(=O)(O)OP(=O)(O)OP(=O)(O)OP(=O)(O)OP(=O)(O)OP(=O)(O)OP(=O)(O)O	IIIB		cytopathic effect / MTT	<33.3 µg/mL
Nc1ncnc2c1ncn2[C@H]1C[C@@H](O)[C@H](O)[C@@H]1O	IIIB			>4 µM
Cc1cc(C)c(Nc2ccnc(Nc3ccc(C#N)cc3)n2)c(C)c1	IIIB		syncytia	0.001 µM
CCCN(CC(=O)c1ccccc1)C[C@H](O)CN(CC1CCCC1)S(=O)(=O)c1ccc(OC)cc1	IIIB		p24	<1 µM
S=C(Cc1ccccn1)NCCc1ccccc1	WILD TYPE		XTT	>200 µM
Nc1cc(OC[C@H]2CC[C@@H](CO)O2)nc(N)n1	IIIB		syncytia	>250 µM
O=C(NCCCNC(=O)c1cc2cc3c(cc2[nH]1)OCO3)c1cc2cc3c(cc2[nH]1)OCO3			cytopathic effect / MTT	>200 µM
Nc1nc(Cl)cc(OC[C@H]2CC[C@@H](COCc3ccccc3)O2)n1	IIIB		syncytia	>50 µM
CCCCCCCC(=O)NCCCCC(=O)O			cytopathic effect	>10 µg/mL
CCCCCCCCCCCCCC(=O)OCC/C(SS/C(CCOC(=O)CCCCCCCCCCCCC)=C(\C)N(C=O)Cc1cnc(C)nc1N)=C(/C)N(C=O)Cc1cnc(C)nc1N	IIIB(SI/TT)		p24	<1 µM
CC1(C)[C@@H](CCO)C[C@H]1n1nnc2c(=O)[nH]c(N)nc21			cytopathic effect	>100 µg/mL
O=[N+]([O-])c1ccc(C2ON=C(c3ccccc3)N2C23CC4CC(CC(C4)C2)C3)cc1			cytopathic effect / XTT	>63 µM
CC1(C)CC(=O)C(S(=O)(=O)N(CC2CCCC2)C[C@@H](O)CN(CCc2ccccc2)C(=O)c2ccccc2)C(=O)S1(=O)=O	IIIB		p24	<1 µM
COc1ccc(CCNC(=O)c2cc3cc4c(cc3[nH]2)OCO4)cc1OC			cytopathic effect / MTT	>200 µM
CC(C)CN(C[C@@H](O)[C@H](Cc1ccccc1)NC(=O)OCc1ccccc1)S(=O)(=O)c1ccc(F)cc1	IIIB		p24	<1.001 µM
Nc1ncnc2c1ccn2[C@H]1C[C@@H](O)[C@H](O)[C@@H]1O	IIIB			>250 µg/mL
Nc1cc(OC[C@H]2CC[C@@H](COCc3ccccc3)O2)ncn1	IIIB		syncytia	>50 µM
O=C(NCCc1ccccc1)c1cc2cc3c(cc2[nH]1)OCO3			cytopathic effect / MTT	>200 µM
Cc1cn([C@H]2C[C@H](O)[C@@H](COC(=O)CCCCCCCCCCCN=[N+]=[N-])O2)c(=O)[nH]c1=O			cytopathic effect / XTT	4.6 µM